Measured values from several laboratories, pooled; numbers as filed in NIAID ChemDB.

All rows: growth or infection tests; organism: Candida tropicalis; measure: MIC

Rows are shuffled and stem from different studies.

C(=C\c1ccccc1)/CNC(Cn1ccnc1)c1ccccc1 ; strain or isolate: CBS 94 CA 44 CA 45 ; value: 40 µg/mL
CC(=O)OC1C(=O)N(c2ccccc2)C1c1ccc2c(c1)OCO2 ; strain or isolate: CP/K92 ; value: 154 µM
CC(C)(C)Sc1ccnc(C(N)=S)c1 ; strain or isolate: 156 ; value: >500 µM
c1ccc(-c2ccc(CNC(Cn3ccnc3)c3ccccc3)cc2)cc1 ; strain or isolate: CBS 94 CA 44 CA 27 ; value: 1.3 µg/mL
O=c1[nH][nH]c2c1C(c1ccc([N+](=O)[O-])cc1)CC(c1ccc3ccccc3c1)=C2 ; value: 100 µg/mL
Fc1ccc(C(Cn2ccnc2)NC/C=C/c2ccccc2)cc1 ; strain or isolate: CBS 94 CA 44 CA 36 ; value: 50 µg/mL
NC(=S)c1cc(SC2CCCCC2)ccn1 ; strain or isolate: 156 ; value: >500 µM
CS(=O)(=O)OC1C(=O)N(c2ccccc2)C1c1ccccc1 ; strain or isolate: CP/K92 ; value: 9.46 µM
Clc1ccc(C(Cn2ccnc2)NC/C=C/c2ccccc2)c(Cl)c1 ; strain or isolate: CBS 94 CA 44 CA 47 ; value: 50 µg/mL
COC(=O)[C@H]1[C@@H]2C[C@@H](O[C@@H]3O[C@H](C)[C@@H](O)[C@H](N)[C@@H]3O)/C=C/C=C/C=C/C=C/C=C/C=C/C=C/[C@H](C)[C@@H](O)[C@H](C)[C@H](C)OC(=O)C[C@H](O)C[C@H](O)[C@@H](O)CC[C@H](O)C[C@H](O)C[C@](O)(C[C@@H]1O)O2 ; strain or isolate: Isolate 93-681 fluconazole-susceptible ; value: <0.25 µg/mL
CCC(C)Sc1ccnc(C(N)=S)c1 ; strain or isolate: 156 ; value: 250 µM
O=C1C(O)C(c2cccc3ccccc23)N1c1ccc(Br)cc1 ; strain or isolate: CP/K92 ; value: 38.46 µM
O=c1[nH][nH]c2c1C(c1ccc(F)cc1)CC(c1ccc3ccccc3c1)=C2 ; value: 12.5 µg/mL
CCCCCCCCCCCCCC[C@@H]1CCCN1C ; strain or isolate: HT4614 ; value: 12.5 µg/mL
c1ccc(C(Cn2ccnc2)NCc2cccc3ccccc23)cc1 ; strain or isolate: CBS 94 CA 44 CA 44 ; value: 37.7 µg/mL
CCC(C)CC(C)CCCCCCCCC(=O)N[C@H]1C[C@@H](O)[C@H](NCCN)NC(=O)[C@@H]2[C@@H](O)CCN2C(=O)[C@H]([C@H](O)CCN)NC(=O)[C@H]([C@H](O)[C@@H](O)c2ccc(O)cc2)NC(=O)[C@@H]2C[C@@H](O)CN2C(=O)[C@H]([C@@H](C)O)NC1=O ; strain or isolate: MY1163 ; value: 0.25 µg/mL
OC(Cn1cncn1)(Cn1cncn1)c1ccc(F)cc1F ; strain or isolate: Clinical isolates ; value: 0.811 µg/mL
O=C1C(O)C2(c3ccccc3)SCCCN12 ; strain or isolate: CP/K92 ; value: 106 µM
CCCSc1ccnc(C(N)=S)c1 ; strain or isolate: 156 ; value: 250 µM
C[C@H]1N(C(=O)c2ccc(C(F)(F)F)cc2)C[C@@H](O)O[C@@]1(Cn1cncn1)c1ccc(F)cc1F ; strain or isolate: Isolate 2 ; value: >100 µg/mL
O=c1[nH][nH]c2c1C(c1ccc(Br)cc1)CC(c1ccc3ccccc3c1)=C2 ; value: 12.5 µg/mL
CCCCCSc1ccnc(C(N)=S)c1 ; strain or isolate: 156 ; value: >500 µM
Nc1[nH]c(=O)ncc1F ; strain or isolate: Berkout KCCM 50662 ; value: 0.8 µg/mL
Fc1ccc(C(Cn2ccnc2)NCc2cccc3ccccc23)cc1 ; strain or isolate: CBS 94 CA 44 CA 42 ; value: 36.7 µg/mL

A second listing of 2 rows from above:

smiles	strain or isolate	value
O=C1C(O)C(c2cccc3ccccc23)N1c1ccc(Br)cc1	CP/K92	38.46 µM
CCCCCSc1ccnc(C(N)=S)c1	156	>500 µM